{
  "source": "ChEMBL document CHEMBL3045492",
  "about": "“Regioselective synthesis of novel 3-alkoxy (phenyl) thiophosphorylamido-2-(per-O-acetylglycosyl-1'-imino)thiazolidine-4-one derivatives from O-alkyl N4-glycosyl(thiosemicarbazido)phosphonothioates” (2009)",
  "key": {"Phomopsis asparagi": {"tested_on": "Phomopsis asparagi", "assay": "Growth inhibition of Phomopsis asparagi at 50 ppm relative to control"}, "[1]": {"tested_on": "Botryosphaeria berengeriana", "assay": "Growth inhibition of Botryosphaeria berengeriana at 50 ppm relative to control"}},
  "note": "Active and inactive are the calls of the source. The rule behind the calls is not given here.",
  "data": [
    {"compound": "COP(=S)(NNC(=S)N[C@@H]1O[C@H](COC(C)=O)[C@@H](OC(C)=O)[C@H](OC(C)=O)[C@H]1OC(C)=O)c1ccccc1", "note": "(some centres not stated)", "values": [
      {"measurement": "growth inhibition (GI)", "setting": "Phomopsis asparagi", "result": "Active"},
      {"measurement": "growth inhibition (GI)", "setting": "[1]", "result": "Active"}
    ]},
    {"compound": "COP(=S)(NNC(=S)N[C@@H]1OC[C@@H](OC(C)=O)[C@H](OC(C)=O)[C@H]1OC(C)=O)c1ccccc1", "note": "(some centres not stated)", "values": [
      {"measurement": "growth inhibition (GI)", "setting": "Phomopsis asparagi", "result": "Active"},
      {"measurement": "growth inhibition (GI)", "setting": "[1]", "result": "Active"}
    ]},
    {"compound": "CCOP(=S)(NNC(=S)N[C@@H]1O[C@H](COC(C)=O)[C@@H](OC(C)=O)[C@H](OC(C)=O)[C@H]1OC(C)=O)OCC", "values": [
      {"measurement": "growth inhibition (GI)", "setting": "Phomopsis asparagi", "result": "Active"},
      {"measurement": "growth inhibition (GI)", "setting": "[1]", "result": "Active"}
    ]},
    {"compound": "COP(=S)(NNC(=S)N[C@@H]1O[C@H](COC(C)=O)[C@H](OC(C)=O)[C@H](OC(C)=O)[C@H]1OC(C)=O)c1ccccc1", "note": "(some centres not stated)", "values": [
      {"measurement": "growth inhibition (GI)", "setting": "Phomopsis asparagi", "result": "Active"},
      {"measurement": "growth inhibition (GI)", "setting": "[1]", "result": "Active"}
    ]},
    {"compound": "CCOP(=S)(NNC(=S)N[C@@H]1O[C@H](COC(C)=O)[C@@H](O[C@@H]2O[C@H](CC(C)=O)[C@H](OC(C)=O)[C@H](OC(C)=O)[C@H]2OC(C)=O)[C@H](OC(C)=O)[C@H]1OC(C)=O)OCC", "values": [
      {"measurement": "growth inhibition (GI)", "setting": "Phomopsis asparagi", "result": "Active"},
      {"measurement": "growth inhibition (GI)", "setting": "[1]", "result": "Active"}
    ]},
    {"compound": "CCCOP(=S)(NNC(=S)N[C@@H]1O[C@H](COC(C)=O)[C@@H](OC(C)=O)[C@H](OC(C)=O)[C@H]1OC(C)=O)c1ccccc1", "note": "(some centres not stated)", "values": [
      {"measurement": "growth inhibition (GI)", "setting": "Phomopsis asparagi", "result": "Active"},
      {"measurement": "growth inhibition (GI)", "setting": "[1]", "result": "Active"}
    ]},
    {"compound": "CCOP(=S)(NNC(=S)N[C@@H]1OC[C@@H](OC(C)=O)[C@H](OC(C)=O)[C@H]1OC(C)=O)OCC", "values": [
      {"measurement": "growth inhibition (GI)", "setting": "Phomopsis asparagi", "result": "Active"},
      {"measurement": "growth inhibition (GI)", "setting": "[1]", "result": "Active"}
    ]},
    {"compound": "CCOP(=S)(NNC(=S)N[C@@H]1OC[C@@H](OC(C)=O)[C@H](OC(C)=O)[C@H]1OC(C)=O)c1ccccc1", "note": "(some centres not stated)", "values": [
      {"measurement": "growth inhibition (GI)", "setting": "Phomopsis asparagi", "result": "Active"},
      {"measurement": "growth inhibition (GI)", "setting": "[1]", "result": "Active"}
    ]},
    {"compound": "COP(=S)(NNC(=S)N[C@@H]1OC[C@@H](OC(C)=O)[C@H](OC(C)=O)[C@H]1OC(C)=O)OC", "values": [
      {"measurement": "growth inhibition (GI)", "setting": "Phomopsis asparagi", "result": "Active"},
      {"measurement": "growth inhibition (GI)", "setting": "[1]", "result": "Active"}
    ]},
    {"compound": "CCOP(=S)(NNC(=S)N[C@@H]1O[C@H](COC(C)=O)[C@H](OC(C)=O)[C@H](OC(C)=O)[C@H]1OC(C)=O)OCC", "values": [
      {"measurement": "growth inhibition (GI)", "setting": "Phomopsis asparagi", "result": "Active"},
      {"measurement": "growth inhibition (GI)", "setting": "[1]", "result": "Active"}
    ]},
    {"compound": "CCOP(=S)(NNC(=S)N[C@@H]1O[C@H](COC(C)=O)[C@@H](O[C@H]2O[C@H](CC(C)=O)[C@@H](OC(C)=O)[C@H](OC(C)=O)[C@H]2OC(C)=O)[C@H](OC(C)=O)[C@H]1OC(C)=O)OCC", "values": [
      {"measurement": "growth inhibition (GI)", "setting": "Phomopsis asparagi", "result": "Active"},
      {"measurement": "growth inhibition (GI)", "setting": "[1]", "result": "Active"}
    ]}
  ]
}
